A mixed list of measured activities; the numbers were collected in NIAID ChemDB.

All rows: whole-cell or culture tests; species: Vaccinia virus; endpoint: inhibition

Neighbouring rows are from separate reports. Percent inhibition refers to the dose given; in toxicity tests it is the harm to the cells. An empty or dashed field is not shown.

Cc1ccc2c(c1)c1nn(-c3ccc(Br)cc3)c(=O)c-1cn2C1O[C@H](CO)[C@@H](O)[C@H]1O ; dose: 100 µM ; cell line: BSC-40 ; strain: WR ; value: 10%
CO[C@H]1/C=C/O[C@@]2(C)Oc3c(C)c(O)c4c(O)c(c(/C=N/NC(=O)CN5CCN(c6ccc(Cl)cc6)CC5)c(O)c4c3C2=O)NC(=O)/C(C)=C\C=C\[C@H](C)[C@H](O)[C@@H](C)[C@@H](O)[C@@H](C)[C@H](OC(C)=O)[C@@H]1C ; dose: 50 µg/mL ; cell line: L929 ; value: 0%
Cc1nnc2nc3c(nn12)c1ccccc1n3C ; dose: 60 µg/mL ; cell line: BSC-1 ; strain: WR ; value: 90%
Cc1ccc(Cn2cnc(=N)c3[nH]cnc32)cc1 ; dose: 50 µg/mL ; cell line: BSC-1 ; value: 10%
CO[C@H]1/C=C/O[C@@]2(C)Oc3c(C)c(O)c4c(O)c(c(/C=N/NC(=O)CN5CCN(c6ccc(F)cc6)CC5)c(O)c4c3C2=O)NC(=O)/C(C)=C\C=C\[C@H](C)[C@H](O)[C@@H](C)[C@@H](O)[C@@H](C)[C@H](OC(C)=O)[C@@H]1C ; dose: 50 µg/mL ; cell line: L929 ; value: 0%
Cn1cc(NC(=O)c2cc(NC(=O)CN=C(N)N)cn2C)c(C(=O)NCCC(=N)N)c1 ; dose: 75 µg/mL ; cell line: BSC-1 ; strain: Noguchi ; value: 100%
CCCn1cnc(=N)c2[nH]cnc21 ; dose: 12 µg/mL ; cell line: BSC-1 ; value: 0%
CO[C@H]1/C=C/O[C@@]2(C)Oc3c(C)c(O)c4c(O)c(c(/C=N/NC(=O)CN5CCN(c6ccc(Br)cc6)CC5)c(O)c4c3C2=O)NC(=O)/C(C)=C\C=C\[C@H](C)[C@H](O)[C@@H](C)[C@@H](O)[C@@H](C)[C@H](OC(C)=O)[C@@H]1C ; dose: 50 µg/mL ; cell line: L929 ; value: 0%
CN(C)CCN1C(=O)c2cccc3cc(N)cc(c23)C1=O ; dose: 4 µg/mL ; cell line: VERO ; value: 0%
Cc1ccc2c(c1)c1nn(-c3ccc(F)cc3)c(=O)c-1cn2C1O[C@H](CO)[C@@H](O)[C@H]1O ; dose: 100 µM ; cell line: BSC-40 ; strain: WR ; value: 18%
CCc1ccc(N2CCN(CC(=O)N/N=C/c3c4c(O)c5c(O)c(C)c6c(c5c3O)C(=O)[C@@](C)(O/C=C/[C@H](OC)[C@@H](C)[C@@H](OC(C)=O)[C@H](C)[C@H](O)[C@H](C)[C@@H](O)[C@@H](C)/C=C/C=C(/C)C(=O)N4)O6)CC2)cc1 ; dose: 50 µg/mL ; cell line: L929 ; value: 0%
CCn1cnc(=N)c2[nH]cnc21 ; dose: 6 µg/mL ; cell line: BSC-1 ; value: 0%
O=c1c2cn(C3O[C@H](CO)[C@@H](O)[C@H]3O)c3cc(F)ccc3c-2nn1-c1ccc(F)cc1 ; dose: 100 µM ; cell line: BSC-40 ; strain: WR ; value: 9%
Cn1cc(NC(=O)c2cc(NC(=O)c3cc(NC=O)cn3C)cn2C)cc1C(=O)NCCC(=N)N ; dose: 25 µg/mL ; cell line: BSC-1 ; strain: Noguchi ; value: 89%
Cc1ccc(-n2nc3c4ccccc4n(C4O[C@H](CO)[C@@H](O)[C@H]4O)cc-3c2=O)cc1 ; dose: 100 µM ; cell line: BSC-40 ; strain: WR ; value: 30%
COc1ccc(N2CCN(CC(=O)N/N=C/c3c4c(O)c5c(O)c(C)c6c(c5c3O)C(=O)[C@@](C)(O/C=C/[C@H](OC)[C@@H](C)[C@@H](OC(C)=O)[C@H](C)[C@H](O)[C@H](C)[C@@H](O)[C@@H](C)/C=C/C=C(/C)C(=O)N4)O6)CC2)cc1 ; dose: 50 µg/mL ; cell line: L929 ; value: 0%
COc1ccc(-n2nc3c4cc(C)ccc4n(C4O[C@H](CO)[C@@H](O)[C@H]4O)cc-3c2=O)cc1 ; dose: 100 µM ; cell line: BSC-40 ; strain: WR ; value: 48%
CCCCn1cnc(=N)c2[nH]cnc21 ; dose: 25 µg/mL ; cell line: BSC-1 ; value: 0%
CN1C(=O)NC(=O)N([C@H]2C[C@H](O)[C@@H](CO)O2)C1(C)C ; dose: 25 µM ; cell line: VERO ; value: 28%
CO[C@H]1/C=C/O[C@@]2(C)Oc3c(C)c(O)c4c(O)c(c(/C=N/NC(=O)CN5CCN(c6ccc([N+](=O)[O-])cc6)CC5)c(O)c4c3C2=O)NC(=O)/C(C)=C\C=C\[C@H](C)[C@H](O)[C@@H](C)[C@@H](O)[C@@H](C)[C@H](OC(C)=O)[C@@H]1C ; dose: 50 µg/mL ; cell line: L929 ; value: 0%
Cc1cccc(Cn2cnc(=N)c3[nH]cnc32)c1 ; dose: 12 µg/mL ; cell line: BSC-1 ; value: 0%
CO[C@H]1/C=C/O[C@@]2(C)Oc3c(C)c(O)c4c(O)c(c(/C=N/NC(=O)CN5CCN(c6ccccc6)CC5)c(O)c4c3C2=O)NC(=O)/C(C)=C\C=C\[C@H](C)[C@H](O)[C@@H](C)[C@@H](O)[C@@H](C)[C@H](OC(C)=O)[C@@H]1C ; dose: 50 µg/mL ; cell line: L929 ; value: 0%
COc1ccc(-n2[nH]c3c(cnc4ccc(C)cc43)c2=O)cc1 ; dose: 100 µM ; cell line: BSC-40 ; strain: WR ; value: 33%

The first 2 rows once more:

compound,dose,cell line,strain,value
Cc1ccc2c(c1)c1nn(-c3ccc(Br)cc3)c(=O)c-1cn2C1O[C@H](CO)[C@@H](O)[C@H]1O,100 µM,BSC-40,WR,10%
CO[C@H]1/C=C/O[C@@]2(C)Oc3c(C)c(O)c4c(O)c(c(/C=N/NC(=O)CN5CCN(c6ccc(Cl)cc6)CC5)c(O)c4c3C2=O)NC(=O)/C(C)=C\C=C\[C@H](C)[C@H](O)[C@@H](C)[C@@H](O)[C@@H](C)[C@H](OC(C)=O)[C@@H]1C,50 µg/mL,L929,-,0%